This is a selection; strong and weak results do not stand in their true shares. The source made the active and inactive calls. The call rests on the fitted dose curve; in most records, active means well fitted inhibition curve with a large enough effect; inconclusive means small, poorly fitted or top-dose-only effect; inactive means no such curve, though single readings can be large or run the other way.
On the % scale 0 is the no-effect control and ±100 the full control effect.

This assay deals with Phosphoglycerate kinase, glycosomal (Trypanosoma brucei brucei) (UniProt P07378). Briefly: qHTS Assay to Find Inhibitors of Phosphoglycerate Kinase. Further: nearly all actives have a fitted effect of over 60% in size. The settings on record: PGK/GAPDH coupled, Kinase-Glo luminescence, 60 min; activity change, negative = inhibition: at 57.5 µM (top of the series). The procedure, abridged:
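Luminescent ATP detection (Kinase-Glo Plus) follows a 60-minute room-temperature incubation, with wells lacking PGK as controls. Buffer: 100 mM TEA (pH 7.6), 5 mM MgCl2, 0.01% Tween-20. Coupling enzyme GAPDH (100 nM final) supplies unstable 1,3-BPG in-well.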
For orientation: In qHTS, concentration-response curves come from the screen itself.
As for `O=[N+]([O-])c1cc([N+](=O)[O-])c(Nc2ccc(Cl)cc2)c([N+](=O)[O-])c1`, the activity change, negative = inhibition was inactive: -3.05%.

As to `CN(C)c1cccc(C(=O)NCC2(N3CCCCC3)CCCCC2)c1`, the activity change, negative = inhibition is inactive: -9.01%.

On to `O=[N+]([O-])c1cc([N+](=O)[O-])c(OC2CCCCC2O)c([N+](=O)[O-])c1` (stereo unspecified), for which the activity change, negative = inhibition result was “inactive”.

For `COc1ccc(CN(CCCl)CCCl)cc1Cl`, the activity change, negative = inhibition was inactive: 7.82%.

Take `CC(C)c1ccc(NC2CCN(C(=O)OC(C)(C)C)CC2)cc1`: the activity change, negative = inhibition result was “inactive”.

As to `O=C(NCC1(N2CCOCC2)CCCCC1)c1cc(F)c(F)cc1Cl`, the activity change, negative = inhibition is inactive: 15.4%.

`COc1cc(OC)c(C(=O)NCC2(N(C)C)CCCCC2)cc1OC`: the activity change, negative = inhibition was inactive: -2.4%.

For the compound `O=C(NCC1(N2CCOCC2)CCCCC1)c1cc2ccccc2o1`, the activity change, negative = inhibition was inactive: 2.94%.

In the case of `Cc1cc(C)cc(N(C(=O)c2ccccc2)C2CCN(C(=O)OC(C)(C)C)CC2)c1`, the activity change, negative = inhibition was inactive: -6.12%.

For the compound `O=C(NCC1(N2CCCCC2)CCCCC1)c1ccc(Cl)nc1`, the activity change, negative = inhibition entry is “inactive”.

Regarding `COc1ccc(Cl)cc1C(=O)NCC1(N2CCOCC2)CCCCC1`, the activity change, negative = inhibition was inactive: -4.31%.

For `O=C(OC1CN2CCC1CC2)C1c2ccccc2Oc2ccccc21` (stereo unspecified), the activity change, negative = inhibition is inactive: -3.85%.

As to `O=C(NCC1(N2CCCCC2)CCCCC1)c1ccc(Cl)s1`, the activity change, negative = inhibition was inactive: 0.448%.

Turning to `N#CC1(Nc2ccccc2)CCN(Cc2ccccc2)CC1`, the activity change, negative = inhibition was inactive: -5.69%.

For the compound `O=C(NCC1(N2CCCCC2)CCCCC1)c1cccs1`, the activity change, negative = inhibition is inactive: -3.05%.

Take `O=C(NCC1(N2CCCCC2)CCCCC1)c1ccc(=O)[nH]c1`: the activity change, negative = inhibition entry was “inactive”.

With `COc1ccc(C(=O)NCC2(N3CCCCC3)CCCCC2)c(OC)c1OC`, the activity change, negative = inhibition is inactive: -0.707%.

As to `COc1ccc(C(=O)NCC2(N3CCCCC3)CCCCC2)cc1`, the activity change, negative = inhibition is inactive: -6.58%.

For the compound `Cc1cccc(NC2(C#N)CCN(Cc3ccccc3)CC2)c1`, the activity change, negative = inhibition was inactive: 8.72%.

As for `CSc1ccccc1C(=O)NCC1(N2CCCCC2)CCCCC1`, the activity change, negative = inhibition is inactive: -5.66%.

Turning to `COc1cc(C(=O)NCC2(N(C)C)CCCCC2)ccc1OC(F)F`, the activity change, negative = inhibition is inactive: -4.3%.

As for `CCOC(=O)N1CCC(Nc2cccc(C)c2)CC1`, the activity change, negative = inhibition is inactive: -0.544%.

As to `CCOc1ccc(C)cc1CN(CCCl)CCCl`, the activity change, negative = inhibition entry was “inactive”.

As for `O=C1CCN(Cc2ccccc2)CC1`, the activity change, negative = inhibition was inactive: 1.17%.

With `O=C(NCC1(N2CCOCC2)CCCCC1)c1ccc(Cl)cc1`, the activity change, negative = inhibition is inactive: -1.92%.

On to `CCOC(=O)N1CCC(Nc2ccc(F)cc2)CC1`, for which the activity change, negative = inhibition is inactive: -5.24%.

Take `COc1ccc(NC2CCN(CCc3ccccc3)CC2)c(OC)c1`: the activity change, negative = inhibition is inactive: 8.74%.

On to `O=C(NCC1(N2CCCCC2)CCCCC1)c1ccc(F)cc1`, for which the activity change, negative = inhibition is inactive: 5.64%.

On to `CCCCOc1ccc(C(=O)NCC2(N3CCOCC3)CCCCC2)cc1`, for which the activity change, negative = inhibition was inactive: 0.649%.

Turning to `O=P1(N(CCCl)CCCl)SCCCS1`, the activity change, negative = inhibition was inactive: -1.18%.

`COc1ccccc1C(=O)NCC1(N2CCOCC2)CCCCC1`: the activity change, negative = inhibition is inactive: -5.3%.

The values are drawn from PubChem BioAssay AID602233 (National Center for Advancing Translational Sciences (NCATS), 2012).
